For this experiment, the system named is SARS2 M^pro. The experiment can be described thus: Luciferase-based gain-of-signal reporter (Src-Mpro-Tat-Luc), wild-type. Format: cell-based, SARS-CoV-2. The settings on record: for Mean S:B (signal to background): 293T cells, normalized to DMSO; for increase over background luminescence: background normalized to 1.

Each structure is given as a SMILES string.

In the case of `CC(C)C[C@H](NC(=O)OCc1ccccc1)C(=O)N[C@@H](C[C@@H]1CCNC1=O)C(O)S(=O)(=O)O` (some centres unmarked), the “Mean S:B (signal to background)” value runs as follows: (0.05 µM) 1.3; (0.10 µM) 1.7; (0.20 µM) 2.2; (0.39 µM) 3.4; (0.78 µM) 5.0; (1.56 µM) 7.7. For the same compound, the “Mean S:B (signal to background)” value (3.13 µM) stood at 11.3; the “Mean S:B (signal to background)” value (6.25 µM) is 16.4; the “Mean S:B (signal to background)” value (12.5 µM) is given as 22.8; the “Mean S:B (signal to background)” value (25 µM) was 31.7; the “Mean S:B (signal to background)” value (50 µM) is listed as 48.2; the “Mean S:B (signal to background)” value (100 µM) was determined as 99.7. Also, the “increase over background luminescence” value is, setting by setting: (200 nM compound) 2 fold; (100 μM compound) 100 fold.

These data come from PMC9239272 (mBio, 2022).
